# Active and inactive are the calls of the source. The rule behind the calls is not given here.
# Chains of the proteins cited; added tags and fusions are not shown.
# UniProt Q16881, whole entry, looked up: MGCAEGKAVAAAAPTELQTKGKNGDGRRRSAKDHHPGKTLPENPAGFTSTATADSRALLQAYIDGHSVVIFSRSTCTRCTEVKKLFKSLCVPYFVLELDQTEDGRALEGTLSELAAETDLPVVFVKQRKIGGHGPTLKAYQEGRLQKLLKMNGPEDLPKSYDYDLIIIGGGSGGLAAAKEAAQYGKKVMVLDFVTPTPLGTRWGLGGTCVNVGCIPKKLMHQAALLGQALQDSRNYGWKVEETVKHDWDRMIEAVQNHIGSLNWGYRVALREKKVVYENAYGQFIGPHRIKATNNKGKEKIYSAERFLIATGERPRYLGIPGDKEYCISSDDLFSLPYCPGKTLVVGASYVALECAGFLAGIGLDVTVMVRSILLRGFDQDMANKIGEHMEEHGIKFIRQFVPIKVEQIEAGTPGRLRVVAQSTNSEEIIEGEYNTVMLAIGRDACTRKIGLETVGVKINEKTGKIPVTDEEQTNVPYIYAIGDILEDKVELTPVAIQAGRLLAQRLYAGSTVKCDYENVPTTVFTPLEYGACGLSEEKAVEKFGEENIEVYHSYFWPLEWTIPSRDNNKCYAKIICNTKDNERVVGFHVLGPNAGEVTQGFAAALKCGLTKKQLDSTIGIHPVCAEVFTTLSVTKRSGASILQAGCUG
# UniProt Q9NNW7, whole entry, looked up: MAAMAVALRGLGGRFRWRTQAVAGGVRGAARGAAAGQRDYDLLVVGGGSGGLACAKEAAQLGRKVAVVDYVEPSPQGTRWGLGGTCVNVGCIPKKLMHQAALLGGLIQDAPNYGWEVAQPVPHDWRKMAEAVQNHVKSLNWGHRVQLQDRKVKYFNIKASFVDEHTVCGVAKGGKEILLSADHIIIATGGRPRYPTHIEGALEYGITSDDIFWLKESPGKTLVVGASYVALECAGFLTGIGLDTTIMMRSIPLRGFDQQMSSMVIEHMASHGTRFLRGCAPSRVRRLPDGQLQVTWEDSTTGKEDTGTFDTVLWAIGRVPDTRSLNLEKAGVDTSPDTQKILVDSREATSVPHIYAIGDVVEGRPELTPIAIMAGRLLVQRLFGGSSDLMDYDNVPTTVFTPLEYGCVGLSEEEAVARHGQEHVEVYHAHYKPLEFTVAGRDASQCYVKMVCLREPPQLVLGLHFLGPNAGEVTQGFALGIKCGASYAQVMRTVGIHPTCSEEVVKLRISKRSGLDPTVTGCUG
# UniProt Q86VQ6, whole entry, looked up: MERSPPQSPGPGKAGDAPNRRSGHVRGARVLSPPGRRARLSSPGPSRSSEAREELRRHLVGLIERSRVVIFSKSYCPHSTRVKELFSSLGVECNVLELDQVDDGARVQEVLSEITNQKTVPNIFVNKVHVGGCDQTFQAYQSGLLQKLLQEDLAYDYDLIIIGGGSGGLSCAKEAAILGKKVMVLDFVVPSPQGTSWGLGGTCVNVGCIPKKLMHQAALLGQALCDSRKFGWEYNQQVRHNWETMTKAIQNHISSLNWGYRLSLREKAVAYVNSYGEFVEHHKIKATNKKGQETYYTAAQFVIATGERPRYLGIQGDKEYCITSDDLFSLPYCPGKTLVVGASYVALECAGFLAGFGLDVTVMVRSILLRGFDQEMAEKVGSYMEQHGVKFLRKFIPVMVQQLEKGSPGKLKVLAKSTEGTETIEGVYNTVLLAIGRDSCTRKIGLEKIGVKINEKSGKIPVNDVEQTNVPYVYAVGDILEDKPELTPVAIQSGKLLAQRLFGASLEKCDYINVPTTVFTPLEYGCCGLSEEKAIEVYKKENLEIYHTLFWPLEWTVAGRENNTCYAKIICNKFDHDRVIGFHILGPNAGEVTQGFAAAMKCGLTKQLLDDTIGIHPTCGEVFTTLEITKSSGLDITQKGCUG
# Legend:
# Details in all cases: HL-60
# [1] = target: T1, Thioredoxin reductase (Homo sapiens) (UniProt Q16881+Q9NNW7+Q86VQ6); assay: Inhibition of TrxR in human HL60 cells assessed as cell death after 48 hrs by trypan blue exclusion assay in presence of vitamin C antioxidant
# [2] = target: T1, Thioredoxin reductase (Homo sapiens); assay: Inhibition of TrxR in human HL60 cells assessed as cell death after 48 hrs by trypan blue exclusion assay in presence of vitamin E antioxidant
# [3] = target: T1, Thioredoxin reductase (Homo sapiens); assay: Inhibition of TrxR in human HL60 cells assessed as cell death after 48 hrs by trypan blue exclusion assay in presence of 0.1 to 2 mM NAC thiol antioxidant
smiles,measurement,setting,value
Nc1ccc([As]2SCCCS2)cc1,inhibition,[1],Active
same,inhibition,[2],Active
same,inhibition,[3],inactive

# Reference: ChEMBL document CHEMBL3286196 (J Med Chem, 2014)
